# Data reported in patent US10905739B2, “Peptidomimetic macrocycles and formulations thereof” (AILERON THERAPEUTICS, INC., priority 2014, dated 2021).
# Test system: Influenza A Virus H1N1 California/07/2009
# Conditions: for EC50: Virus California/07/2009
SMILES,increase in antiviral activity compared to SP-786,EC50 [µM]
CCCC[C@H](NC(C)=O)C(=O)N[C@@H](CC(=O)O)C(=O)N[C@H](C(=O)N[C@@H](CC(N)=O)C(=O)N[C@@]1(C)CCCC=CCCC[C@@](C)(C(=O)N[C@@H](CC(C)C)C(=O)N[C@@H](C)C(=O)N[C@H](C(=O)N[C@@H](CCC(N)=O)C(=O)N[C@@H](C)C(=O)N[C@@H](CCC(N)=O)C(=O)N[C@@H](C)C(=O)N[C@@H](C)C(N)=O)C(C)C)NC(=O)[C@H](CC(C)C)NC(=O)[C@H](CC(C)C)NC(=O)[C@H]([C@@H](C)O)NC1=O)C(C)C [SP791],five-fold increase,4.1
CCCC[C@H](NC(C)=O)C(=O)N[C@@H](CC(=O)O)C(=O)N[C@H](C(=O)N[C@@H](CC(N)=O)C(=O)N[C@@]1(C)CCCC=CCCC[C@@](C)(C(=O)N[C@@H](CC(C)C)C(=O)N[C@@H](C)C(=O)N[C@H](C(=O)N[C@@H](CCC(N)=O)C(=O)N[C@@H](C)C(=O)N[C@@H](C)C(=O)N[C@@H](C)C(=O)N[C@@H](C)C(N)=O)C(C)C)NC(=O)[C@H](CC(C)C)NC(=O)[C@H](CC(C)C)NC(=O)[C@H]([C@@H](C)O)NC1=O)C(C)C [SP794],five-fold increase,6.1
